Measured values from several laboratories, pooled; numbers as filed in NIAID ChemDB.

All rows: growth or infection tests; agent: Streptococcus pneumoniae

A number after MIC or MFC names an inhibition level or a share of isolates. Neighbouring rows are from separate reports.

smiles	strain or isolate	measure	value
C=C1COC2[C@@H](C)C(=NC(C)=O)[C@H](C)C[C@@](C)(OC1)[C@H](O[C@@H]1O[C@H](C)C[C@H](N(C)C)[C@H]1O)[C@@H](C)C(=O)[C@@H](C)C(=O)O[C@H](CC)[C@@]2(C)O	7701 (erythromycin-resistant-MEF)	MIC	0.5 µg/mL
CC[C@H]1OC(=O)[C@@](C)(F)C(=O)[C@H](C)[C@@H](O[C@@H]2O[C@H](C)C[C@H](N(C)C)[C@H]2O)[C@@]2(C)C[C@@H](C)C(=NC(C)=O)[C@H](C)[C@@H](OC/C(=N\OCc3ccc(-c4csnn4)nc3)CO2)[C@]1(C)O	7701 (erythromycin A-resistant)	MIC	<0.06 µg/mL
CN1CCN(c2ccc3c(=O)c(C(=O)O)cn(C4CC4)c3c2)CC1	R6-G8	MIC	32 µg/mL
CC[C@H]1OC(=O)[C@H](C)C(=O)[C@H](C)[C@@H](O[C@@H]2O[C@H](C)C[C@H](N(C)C)[C@H]2O)[C@@]2(C)C[C@@H](C)C(=NC(C)=O)[C@H](C)[C@@H](OC/C(=N\OCCc3ccccc3)CO2)[C@]1(C)O	7701 (erythromycin-resistant-MEF)	MIC	0.5 µg/mL
COc1c(N2CCNC(C)C2)ccc2c(=O)c(C(=O)O)cn(C3CC3)c12	R6-C11	MIC	16 µg/mL
CC[C@H]1OC(=O)[C@H](C)C(=O)[C@H](C)[C@@H](O[C@@H]2O[C@H](C)C[C@H](N(C)C)[C@H]2O)[C@@]2(C)C[C@@H](C)C(=NC(C)=O)[C@H](C)C(OC/C(=C\C=C\c3ccc([N+](=O)[O-])cc3)CO2)[C@]1(C)O	49619 (erythromycin-susceptible)	MIC	<0.06 µg/mL
NC1CCN(c2ccc3c(=O)c(C(=O)O)cn(C4CC4)c3c2Cl)C1	R6	MIC	0.25 µg/mL
CC[C@H]1OC(=O)[C@H](C)C(=O)[C@H](C)[C@@H](O[C@@H]2O[C@H](C)C[C@H](N(C)C)[C@H]2O)[C@@]2(C)C[C@@H](C)C(=NC(C)=O)[C@H](C)[C@@H](OC/C(=N\Oc3ccc(-c4cnccn4)s3)CO2)[C@]1(C)O	700906 (erythromycin-resistant-ERM)	MIC	0.125 µg/mL
CC[C@H]1OC(=O)[C@H](C)C(=O)[C@H](C)[C@@H](O[C@@H]2O[C@H](C)C[C@H](N(C)C)[C@H]2O)[C@@]2(C)C[C@@H](C)C(=NC(C)=O)[C@H](C)C(OC/C(=C\c3ccccc3)CO2)[C@]1(C)O	49619 (erythromycin-susceptible)	MIC	<0.06 µg/mL
CC[C@H]1OC(=O)[C@H](C)C(=O)[C@H](C)[C@@H](O[C@@H]2O[C@H](C)C[C@H](N(C)C)[C@H]2O)[C@@]2(C)C[C@@H](C)C(=NC(C)=O)[C@H](C)[C@@H](OC/C(=N\Oc3ccc(-c4nccs4)nc3)CO2)[C@]1(C)O	7701 (erythromycin-resistant-MEF)	MIC	<0.06 µg/mL
CC[C@H]1OC(=O)[C@H](C)C(=O)[C@H](C)[C@@H](O[C@@H]2O[C@H](C)C[C@H](N(C)C)[C@H]2O)[C@@]2(C)C[C@@H](C)C(=NC(C)=O)[C@H](C)C(OC/C(=C\C=C\c3cccc([N+](=O)[O-])c3)CO2)[C@]1(C)O	7701 (erythromycin-resistant-MEF)	MIC	0.5 µg/mL
CC[C@H]1OC(=O)[C@H](C)C(=O)[C@H](C)[C@@H](O[C@@H]2O[C@H](C)C[C@H](N(C)C)[C@H]2O)[C@](C)(OC)C[C@@H](C)C(=O)[C@H](C)[C@H]2N(CCCCn3cnc(-c4cccnc4)c3)C(=O)O[C@]12C	7701 (erythromycin-resistant-MEF)	MIC	0.06 µg/mL
COc1c(N2CCNC(C)C2)c(F)cc2c(=O)c(C(=O)O)cn(C3CC3)c12	R6-C11	MIC	0.5 µg/mL
CC[C@H]1OC(=O)[C@H](C)C(=O)[C@H](C)[C@@H](O[C@@H]2O[C@H](C)C[C@H](N(C)C)[C@H]2O)[C@@]2(C)C[C@@H](C)C(=NC(C)=O)[C@H](C)C(OC/C(=C\c3cnc4ccccc4c3)CO2)[C@]1(C)O	700906 (erythromycin-resistant-ERM)	MIC	4 µg/mL
C[C@H]1NCc2cc(-c3c(F)cc4c(=O)c(C(=O)O)cn(C5CC5)c4c3OC(F)F)ccc21	R6-G8	MIC	0.06 µg/mL
CO/N=C1\CN(c2nc3c(cc2F)c(=O)c(C(=O)O)cn3C2CC2)CC1CN	37 isolates erythromycin-resistant	MIC50	0.031 µg/mL

Repeating the first 2 entries:

smiles	strain or isolate	measure	value
C=C1COC2[C@@H](C)C(=NC(C)=O)[C@H](C)C[C@@](C)(OC1)[C@H](O[C@@H]1O[C@H](C)C[C@H](N(C)C)[C@H]1O)[C@@H](C)C(=O)[C@@H](C)C(=O)O[C@H](CC)[C@@]2(C)O	7701 (erythromycin-resistant-MEF)	MIC	0.5 µg/mL
CC[C@H]1OC(=O)[C@@](C)(F)C(=O)[C@H](C)[C@@H](O[C@@H]2O[C@H](C)C[C@H](N(C)C)[C@H]2O)[C@@]2(C)C[C@@H](C)C(=NC(C)=O)[C@H](C)[C@@H](OC/C(=N\OCc3ccc(-c4csnn4)nc3)CO2)[C@]1(C)O	7701 (erythromycin A-resistant)	MIC	<0.06 µg/mL